The target in the test is PLC (Clostridium perfringens) (Clostridium perfringens, UniProt P0C216).

The chains behind the UniProt entries cited, without tags or fusion partners. Residues count along the entry.
UniProt P0C216, 29-398 limits assumed: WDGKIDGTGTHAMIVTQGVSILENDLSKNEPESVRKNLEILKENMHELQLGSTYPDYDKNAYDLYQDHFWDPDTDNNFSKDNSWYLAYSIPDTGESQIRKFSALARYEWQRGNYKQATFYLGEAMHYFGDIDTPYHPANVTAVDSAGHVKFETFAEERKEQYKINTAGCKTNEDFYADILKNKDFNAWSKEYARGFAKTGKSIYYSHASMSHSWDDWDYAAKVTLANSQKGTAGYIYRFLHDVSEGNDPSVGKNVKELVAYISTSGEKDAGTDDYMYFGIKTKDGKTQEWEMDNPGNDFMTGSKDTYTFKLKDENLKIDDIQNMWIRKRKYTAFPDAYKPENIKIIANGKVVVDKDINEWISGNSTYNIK

With “Protein-I: protein purified from human serum by G100, MonoQ and Vydac C4 columns; identified as albumin (SFA)”, the “effect on PLC activity” value is reported as “little effect on the PLC activity”.

The values above are taken from US7968306B2, “Method for measuring activity of a specific fraction of albumin” (Wisconsin Alumni Research Foundation, priority 2002, dated 2011).
